Test results as given in PMC3133661 (Biochemistry, 2011).

Target: the molecule itself
Assay: crystal structure

B1: selenomethionine-labeled full-length PhoP of Mycobacterium tuberculosis (natural protein)
chain: not shown
modifications: selenomethionine in place of methionine (100% incorporation of selenium atoms by mass spectroscopy)
B1: binds.
